Results of unrelated studies side by side (data: NIAID ChemDB).

All rows: growth or infection tests; organism: HIV-2; cell line: MT-4; measure: EC50

Blank or dashed fields: not listed here. Conditions beyond the fields shown may differ between rows. ECn: concentration that inhibits the pathogen or its effect by n%.

structure,strain,read by,value
N#Cc1ccc(Nc2nc(Oc3ccc(-c4ccc(C#N)cc4)cc3Cl)c3sccc3n2)cc1,ROD,MTT,>16.1 µM
CSC(=Nc1ccc(F)cc1)Nn1c(C)nc2ccccc2c1=O,ROD,MTT,2.84 µg/mL
CC(C)=CCOC[C@H]1O[C@@H](n2cc(C)c(=O)n(C)c2=O)[C@H](O[Si](C)(C)C(C)(C)C)C12OS(=O)(=O)C=C2N,-,-,>10 µM
CC(C)CCC[C@@H](C)[C@H]1CC[C@H]2[C@@H]3CC[C@H]4C[C@@H](NC(=O)C=C(c5cc(Cl)c(O)c(C(=O)O)c5)c5cc(Cl)c(O)c(C(=O)O)c5)CC[C@]4(C)[C@H]3CC[C@]12C,ROD,cytopathic effect / MTT,9.8 µM
CCc1ccc(NC(=O)C2=C(C)NC(=O)C3C(N)=NN=C23)cc1,ROD,MTT,98 µg/mL
N#Cc1ccc(Nc2nc(Oc3c(Cl)cccc3Cl)ncc2N)cc1,ROD,MTT,>33 µM
COc1ccc(N(C)C(=O)[C@H](Cc2cc(F)cc(F)c2)NC(=O)CN2CCN(S(=O)(=O)c3cccc(N)c3)CC2=O)cc1,ROD,MTT,0.11 µM
C[C@H](CCC=C(c1cc(Cl)c(O)c(C(=O)O)c1)c1cc(Cl)c(O)c(C(=O)O)c1)[C@H]1CCC2C3C(C[C@H](O)[C@@]21C)[C@@]1(C)CC[C@@H](O)C[C@H]1C[C@H]3O,ROD,MTT,67.2 µM
C=CCN=C(Nn1c(C)nc2ccccc2c1=O)SC,ROD,MTT,5.77 µg/mL
CC1(C)[C@@H](CCO)C[C@H]1n1nnc2c(=O)[nH]c(N)nc21,-,cytopathic effect,>250 µg/mL
CCOC(=O)CNc1nc(NC(=O)Nc2ccccc2Cl)nc(Oc2cc(=O)oc3ccccc23)n1,ROD,MTT,>78.8 µg/mL
N#Cc1ccc(Nc2nc(Oc3c(Br)cc(Br)cc3Br)ncc2NC(=O)C(F)(F)F)cc1,ROD,MTT,>17 µM
COc1c(Cl)cc(C(=CCN[C@@H]2CC[C@@]3(C)[C@@H](CC[C@@H]4[C@@H]3CC[C@]3(C)[C@@H]([C@H](C)CCCC(C)C)CC[C@@H]43)C2)c2cc(Cl)c(OC)c(C(=O)O)c2)cc1C(=O)O,ROD,cytopathic effect / MTT,>87 µM
COc1ccccc1NC(=O)C1=C(C)NC(=O)C2C(N)=NN=C12,ROD,MTT,100 µg/mL
Clc1ccc(-c2nnc3sc(-c4cccnc4)nn23)cc1Cl,ROD,MTT,>80.05 µg/mL
OCC(O)C(O)C(O)c1nnc2sc(-c3ccc(Cl)c(Cl)c3)nn12,-,MTT,17.3 µg/mL
CCOP(=O)(CN[C@@H](Cc1ccccc1)[C@H](O)CN(CC(C)C)S(=O)(=O)c1ccc(OC)cc1)OCC,ROD,MTT,>64.5 µg/mL
Cc1cccc(N2C(=O)CSC2c2c(Cl)cccc2Cl)n1,ROD,-,>284.7 µM
CC(=O)OC[C@H]1O[C@@H](n2cc(C)c(=O)n(C)c2=O)[C@H](O[Si](C)(C)C(C)(C)C)C12OS(=O)(=O)C=C2N,-,-,>50 µM
N#Cc1ccc(Nc2nc(Oc3c(Cl)cc(Cl)cc3Cl)ncc2N)cc1,ROD,MTT,>26 µM
Cc1cc(-c2ccc(C#N)cc2)cc(Cl)c1Oc1nc(Nc2ccc(C#N)cc2)nc2ccsc12,ROD,MTT,>70.3 µM
CC(=O)Nc1cnc(Oc2c(Cl)cccc2Cl)nc1Nc1ccc(C#N)cc1,ROD,MTT,>193 µM
Cc1cccc(Nc2ccccc2C(=O)Nc2ccc(C(=O)/C=C/c3ccc(N(C)C)cc3)cc2)c1C,ROD,MTT / absorbance,>2.06 µM
Nc1ccc(-c2n[nH]c(=S)n2N)cc1,ROD,MTT,>12 µg/mL
COc1ccc(N(C)C(=O)[C@H](Cc2cc(F)cc(F)c2)NC(=O)CN2CCN(S(=O)(=O)c3ccccc3)CC2=O)cc1,ROD,MTT,0.1 µM
Cn1c2ccccc2c2c1cc(C#N)c(=O)n2-c1ccc([N+](=O)[O-])cc1,-,reporter gene,~0.3 µM
CC1(C)[C@@H](CCO)C[C@H]1n1cnc2c(N)ncnc21,-,cytopathic effect,>250 µg/mL
CC(=O)Nc1cnc(Oc2c(C)cc(C)cc2C)nc1Nc1ccc(C#N)cc1,ROD,MTT,>322 µM
CN1C(=O)[C@]2(C[C@@H]2c2ccc(Cl)cc2)c2ccccc21,ROD,MTT,>7.6 µg/mL
Cc1ccc(/C=C/C(=O)c2ccc(NC(=O)c3ccccc3Nc3cccc(C)c3C)cc2)cc1,ROD,MTT / absorbance,>76.9 µM
CC1(C)[C@@H](CCO)C[C@H]1n1cnc2c(=O)[nH]c(N)nc21,-,cytopathic effect,>250 µg/mL
CCOC(=O)CNc1nc(NC(=O)Nc2ccc(F)cc2)nc(Oc2cc(=O)oc3ccccc23)n1,ROD,MTT,>125 µg/mL
COc1ccc(N(C)C(=O)[C@H](Cc2cc(F)cc(F)c2)NC(=O)CN2CCN(S(=O)(=O)c3ccc([N+](=O)[O-])cc3)CC2=O)cc1,ROD,MTT,0.48 µM
N#Cc1ccc(Nc2nc(Oc3ccc(-c4ccc(C#N)cc4)c([N+](=O)[O-])c3)c3sccc3n2)cc1,ROD,MTT,>34.4 µM
O=C1/C(=C\c2ccc(O)cc2)N(CCc2cccs2)C(=S)N1CCc1cccs1,ROD,MTT,>13.25 µg/mL
CC(C)CCC[C@@H](C)[C@H]1CC[C@H]2[C@@H]3CC[C@H]4C[C@@H](NC(=O)CC=C(c5cc(Cl)c(O)c(C(=O)O)c5)c5cc(Cl)c(O)c(C(=O)O)c5)CC[C@]4(C)[C@H]3CC[C@]12C,ROD,cytopathic effect / MTT,14.2 µM
Cc1cc(-c2ccc(C#N)cc2)ccc1Oc1nc(Nc2ccc(C#N)cc2)nc2ccsc12,ROD,MTT,>8.7 µM
CCOc1ccc(NC(=S)Nc2nc(NCCc3ccc(OC)c(OC)c3)nc(Oc3cc(=O)oc4ccccc34)n2)cc1,ROD,MTT,10 µg/mL
Cc1cccc(Nc2ccccc2C(=O)Nc2ccc(C(=O)/C=C/c3ccc(Br)cc3)cc2)c1C,ROD,MTT / absorbance,>12.68 µM
CC(C)CCC[C@@H](C)[C@H]1CC[C@H]2[C@@H]3CC[C@H]4C[C@@H](CCC=C(c5cc(Cl)c(O)c(C(=O)O)c5)c5cc(Cl)c(O)c(C(=O)O)c5)CC[C@]4(C)[C@H]3CC[C@]12C,ROD,MTT,4 µM
O=C1/C(=C\c2ccc(SC3=CC=C3)cc2)N(CCc2cccs2)C(=S)N1CCc1cccs1,ROD,MTT,102 µg/mL
CSC(=Nc1ccccc1)Nn1c(C)nc2ccccc2c1=O,ROD,MTT,57.26 µg/mL
COc1ccc(N(C)C(=O)[C@H](Cc2cc(F)cc(F)c2)NC(=O)CN2CCN(S(=O)(=O)c3cccc(NC(C)=O)c3)CC2=O)cc1,ROD,MTT,0.03 µM
Nn1c(-c2cccc(Br)c2)n[nH]c1=S,ROD,MTT,>75.4 µg/mL
N#Cc1ccc(Nc2nc(Oc3c(F)cc(-c4ccc(C#N)cc4)cc3F)c3sccc3n2)cc1,ROD,MTT,>37.8 µM
Nc1cc2c(=O)c(C(=O)O)cn(C3CC3)c2cc1N1CCN(c2nc3ccccc3s2)CC1,ROD,cytopathic effect / MTT,>0.076 µg/mL
CSC(=Nc1cccc(Cl)c1)Nn1c(C)nc2ccccc2c1=O,ROD,MTT,1.17 µg/mL
Cc1ccnc2c1NC(=O)c1cccnc1N2C1CC1,ROD,MTT,>15 µM
CCc1ccccc1N=C(Nn1c(C)nc2ccccc2c1=O)SC,ROD,MTT,34.45 µg/mL
Nc1cc(O)ccc1-c1n[nH]c(=S)n1N,ROD,MTT,>12 µg/mL
COc1ccc(N(C)C(=O)[C@H](Cc2cc(F)cc(F)c2)NC(=O)CN2CCN(S(=O)(=O)c3cccc(Cl)c3)CC2=O)cc1,ROD,MTT,0.44 µM
Clc1ccc(-c2nnc3sc(-c4ccco4)nn23)cc1Cl,ROD,MTT,>27.2 µg/mL
Cc1cn([C@@H]2O[C@H](CN3CCN(Cc4ccccc4)CC3)C3(OS(=O)(=O)C=C3N)[C@H]2O[Si](C)(C)C(C)(C)C)c(=O)n(C)c1=O,-,-,>50 µM
COc1ccc(N(C)C(=O)[C@H](Cc2cc(F)cc(F)c2)NC(=O)CN2CCN(S(=O)(=O)c3ccc(N)cc3)CC2=O)cc1,ROD,MTT,0.05 µM
Cc1cn([C@@H]2O[C@H](COC(=O)N(C)C)C3(OS(=O)(=O)C=C3N)[C@H]2O[Si](C)(C)C(C)(C)C)c(=O)n(C)c1=O,-,-,>50 µM
Oc1ccc(-c2nnc3sc(-c4cnccn4)nn23)c(Cl)c1Cl,ROD,MTT,>2.11 µg/mL